Results: patent US20070160981A1 (priority 2005, published 2007)

Molecular target: SARS-CoV PLP2 (Severe acute respiratory syndrome coronavirus, UniProt P0C6U8)
Type: biochemical

Thimerosal
found in the screen for inhibitor of SARS-CoV PLP2: found
